{"source": "ChEMBL document CHEMBL1671631", "about": "“Staphylococcus aureus PBP4 is essential for beta-lactam resistance in community-acquired methicillin-resistant strains” (2008)", "test_system": "Staphylococcus aureus", "assay": "Antimicrobial activity against community-acquired pbp3-deficient Staphylococcus aureus MW2 ex serotype USA400 by microdilution method", "assay_type": "functional", "in_short": "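Broth microdilution MIC per CLSI guidelines, inoculum 5 x 10^5 CFU/ml, confirmed by plating serial dilutions. Run in triplicate; three independent clones per mutant. Reported as the median of at least three independent experiments. MBC: clear wells plated onto drug-free tryptic soy agar, 37°C, 24 and 48 h. pEPSA5-carrying strains tested with and without xylose, no chloramphenicol.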", "data": [{"smiles": "Cc1onc(-c2ccccc2)c1C(=O)N[C@@H]1C(=O)N2[C@@H]1SC(C)(C)[C@@H]2C(=O)O", "note": "[OXACILLIN]", "values": [{"measurement": "MIC", "value": 128, "unit": "µg/mL"}]}]}
